# Test results taken from article PMC3041239 (Journal of Medicinal Chemistry, 2011).
# System: rats with carrageenan-induced inflammatory hyperalgesia
# Settings: 170 nmol/kg sc with naloxone methiodide 426 nmol/kg sc; mechanical hyperalgesia
structure (smiles),measurement,value
"CN1CC[C@]23c4c5ccc(O)c4O[C@H]2[C@@H](NCC(=O)O)CC[C@@]3(OCCCc2ccccc2)[C@H]1C5.Cl.Cl [Compound 13, [[4,5α-Epoxy-3-hydroxy-17-methyl-14β-[(3-phenylpropyl)oxy]morphinan-6α-yl]amino]acetic Acid Dihydrochloride]",effect of coadministered naloxone methiodide on the antinociceptive effect,significantly reversed
